Results published in PMC11800497, “Antifungal activity and biocompatibility assessment with molecular docking and dynamic simulations of new pyrazole derivatives” (BMC Biotechnology, 2025).

Test system: HFB4 normal human skin cell line
Assay: Biocompatibility, MTT assay
Assay type: cell-based
Settings: 560 nm
Experimental: A complete monolayer sheet was created by incubating the 96-well tissue culture plate at 37 °C for 24 h following inoculation with 1 × 10^5 cells/ml (100 µl/well), following the procedure described by. Following the establishment of a confluent sheet of cells, the growth material was collected from the 96-well micro titer plates, and the cell monolayer underwent two washing media washes. […] They then evaluated 0.1 ml of each dilution in several wells. We looked at the cells for physical signs of toxicity, including granulation, rounding, shrinkage, and partial or complete loss of the monolayer. Following the phosphate buffer solution’s preparation, each well received 20 µl of a 5 mg/ml MTT (3-(4,5-dimethylthiazol-2-yl-)-2,5 diphenyltetrazolium bromide) solution from Bio Basic Canada Inc. After that, place it on a shaking table and shake it for five minutes at 150 rpm to completely integrate the MTT. to allow MTT to metabolize, followed by incubation for 4 h at 37 °C with 5% CO2. Media was taken out if necessary, and paper towels were used to wipe out any remaining material from the plate. One may re-dissolve formazan, a metabolic product of MTT, in 200 µL of DMSO. Put on a shaking table and shaken for five minutes at 150 rpm to fully mix the formazan and solvent. At 560 nm, optical density was measured, and at 620 nm, background was subtracted. There should be a direct relationship between optical density and cell number.3 [drawing 3]

Question: How did the “Mean O.D” value (31.25 µg/ml) turn out when `COc1ccc(NC(=O)/C(C#N)=C/c2cn(-c3ccccc3)nc2-c2ccccc2)cc1` [3b] was run?
Answer: 0.5607

Question: What about the “Mean O.D” value (62.5 µg/ml) of the same compound?
Answer: 0.564

Question: And the “Mean O.D” value (125 µg/ml)?
Answer: 0.5637

Question: And the “Mean O.D” value (250 µg/ml)?
Answer: 0.5643

Question: And the “Mean O.D” value (500 µg/ml)?
Answer: 0.5643

Question: What about the “Mean O.D” value (1000 µg/ml) of the same compound?
Answer: 0.563
